Measured values published in ChEMBL document CHEMBL4196120, “Inhibition of Connexin Hemichannels by New Amphiphilic Aminoglycosides without Antibiotic Activity” (ACS Med Chem Lett, 2018).

Biological target: Gap junction beta-2 protein (Homo sapiens) (UniProt P29033)
Test: Inhibition of recombinant human Cx26 expressed in Escherichia coli LB2003 assessed as reduction in cell growth at 100 uM measured after 18 hrs

[N-]=[N+]=NC[C@H]1O[C@H](O[C@H]2[C@H](O)[C@@H](O[C@@H]3O[C@H](CO)[C@@H](O)[C@H](N=[N+]=[N-])[C@H]3O)[C@H](N=[N+]=[N-])C[C@@H]2N=[N+]=[N-])[C@H](O)[C@@H](O)[C@@H]1O
inhibition: inactive

Active and inactive are the calls of the source. The rule behind the calls is not given here.
